These are literature values, as cited in PMC11768433 (Viruses, 2024).

pIC50: −log10 of the molar value.

The series has as its system T-20 resistant HIV-1 NL4-3 mutants. Also noted: method as in Ref.30089693. The note with it: T-20 resistant NL4-3 mutants, TZM-bl, range over strains; ref Ref.30089693.
One may read the pIC50 as the negative decadic logarithm of the IC50, by convention in mol/L. As to “LEANIEELLKKAEEQQKKNEEELKKLEX [DRAVPe00784]”, the pIC50 was 7.92 to 10.70. As for “WEQKIEELLKKAEEQQKKNEEELKKLEX [DRAVPe00785]”, the pIC50 was 8.73 to 11.00. On to IEELLKKAEEQQKKNEEELKKLEX [DRAVPe00660], for which the pIC50 was 7.05 to 9.82. As for “YTSLIEELIKKSEEQQKKNEEELKKLEX [DRAVPe00783]”, the pIC50 is 6.87 to 10.22.
